Anti-infective test results gathered from many reports (values: NIAID ChemDB through PubChem).

Shared fields: toxicity to cultured cells; measure: CC50

An empty or dashed field is not shown.

compound,cell line,read by,result
COc1cc(O)c2c(c1)C(=O)C(CC(C)=O)=C(C)C2=O,Panc-1,MTT,73.5 µg/mL
Cc1ccc2nc(Nc3ccc(OCc4ccccc4)cc3)sc2c1,Ava5,MTS,50 µM
CCCn1nc(C)c(N=O)c1-c1cc(C)on1,MIT-4,,20 µM
Cc1nc(Oc2ccc(S(=O)(=O)C(C)C)cc2)ccc1CN1CCC(N2C(=O)N(c3cc(C(N)=O)c(F)cc3F)C[C@H]2c2ccccc2)CC1,HOS,,3.6 nM
CC[C@@H]1CN2CC[C@@]34C5=C(C[C@]6(CN5c5ccccc53)C3=Nc5ccccc5[C@@]35CCN3C[C@@H](CC)[C@@H]6C[C@H]35)[C@H]1C[C@H]24,HL-60,MTT,16.3 µM
Nc1ccn(C[C@H]2COP(=O)(O)CO2)c(=O)n1,CBMC,,65.67 µg/mL
CC(C)Oc1ccccc1CNC(=O)c1ccc2cnccc2n1,MA-104,,13 µM
Clc1ccc2c(NCCNCc3ccncc3)ccnc2c1,HepG2 cells,MTT,153 µM
C[C@H](Cc1ccc(OCCCN2CCOCC2)c(OCCCN2CCOCC2)c1)[C@@H](C)Cc1ccc(OCCCN2CCOCC2)c(OCCCN2CCOCC2)c1,COS,,1.79 µM
Clc1ccc2c(NCCCNCc3ccc(Br)cc3)ccnc2c1,HepG2 cells,MTT,4.946 µM
COc1cccc2c1C(=O)c1ccc3cc(C)cc(O)c3c1C2=O,NCI-H187,resazurin,5.5 µM
CCOC(=O)CCCCCOc1cccc(CN(C(=O)c2ccccc2)C(C)C)c1,HEK 293,,>20 µM
Nc1ncnc2c1c(-c1cccs1)cn2[C@H]1O[C@H](CO)[C@@H](O)C1(F)F,Replicon cells,XTT,>44 µM
Nc1nc2c(ncn2[C@H]2C[C@H](F)[C@@H](CO)O2)c(=O)[nH]1,Primary duck hepatocytes,,>200 µM
C#Cc1cn([C@@H]2O[C@H](CO)[C@@H](O)C2(F)F)c2ncnc(N)c12,Replicon cells,XTT,17.1 µM
CCCCCCCCCCCCCC(=O)NCC(N)=O,LC5,,>50 µg/mL
Nc1nc(N)c2ncn(CCOCP(=O)(O)O)c2n1,CBMC,,20.17 µg/mL
CCCCn1nc(C)c(N=O)c1-c1cc(C)on1,MIT-4,,15 µM
CC1CC(=O)c2c(ccc3c2C(=O)c2cccc(O)c2C3=O)C1,NCI-H187,resazurin,30.3 µM
Clc1ccc2c(NCCCNCc3cnccc3Cl)ccnc2c1,HepG2 cells,MTT,3.756 µM
C#Cc1cn([C@@H]2O[C@H](CO)[C@@H](O)[C@H]2F)c2ncnc(N)c12,Replicon cells,XTT,12.38 µM
Cc1ccc2nc(Nc3ccc([N+](=O)[O-])cc3)sc2c1,Ava5,MTS,31 µM
Cc1cc(-c2cc(C)on2)n(CCO)n1,MIT-4,,>200 µM
CCOC(=O)CCCCCOc1cccc(CN(C(=O)c2ccc(-c3cc(OC)ccc3F)cc2)C(C)C)c1,RAJI,,>20 µM
Cc1cc(-c2cc(C)on2)n(C)n1,MIT-4,,>200 µM
C=CC[C@H](NC(C)=O)C(=O)N1CCC[C@@H]1c1ncc(-c2ccc(-c3ccccc3)cc2)[nH]1,PBM,,>100 µM
COc1ccc(CCNC(=O)CCCCC(C)=O)cc1OC,RAJI,,<7.5 µM
Cn1cc(NC(=O)Nc2cc(C(=O)Nc3cc(C(=O)Nc4ccc(S(=O)(=O)O)c5cc(S(=O)(=O)O)ccc45)n(C)c3)n(C)c2)cc1C(=O)Nc1cc(C(=O)Nc2ccc(S(=O)(=O)O)c3cc(S(=O)(=O)O)ccc23)n(C)c1,Monocytes,,<200 µM
COc1cccc(Nc2nc3ccc(C)cc3s2)c1,Ava5,MTS,321 µM
Cc1nc(Oc2ccc(S(C)(=O)=O)cc2F)ccc1CN1CCC(N2C(=O)N(c3cc(C(N)=O)c(F)cc3F)C[C@H]2c2ccccc2)CC1,HOS,,5.2 nM
COc1cc(O)c2c(c1O)C(=O)c1cc(C)ncc1C2=O,MDA-MB-231,MTT,75.6 µg/mL
COc1ccccc1CNC(=O)C1=Cc2ccncc2CC1,MA-104,,<118 µM
Nc1ncnc2c1c(I)cn2[C@@H]1O[C@H](CO)[C@@H](O)[C@H]1F,Replicon cells,XTT,5.98 µM
CCn1nc(-c2cc(C)on2)c(N=O)c1C,MIT-4,,9.5 µM
Nc1ncnc2c1c(-c1ccco1)cn2[C@H]1O[C@H](CO)[C@@H](O)C1(F)F,Replicon cells,XTT,>44 µM
CCOC(=O)CCCCCOc1cccc(CN(C(=O)c2ccc(-c3ccncc3)cc2)C(C)C)c1,BJ,,>20 µM
CC[C@@H]1CN2CC[C@]34c5ccccc5-n5c3c(cc(C(=O)OC)c5=O)[C@H]1C[C@H]24,HL-60,MTT,16.82 µM
Clc1ccc2c(NCCCNCc3cccnc3)ccnc2c1,HepG2 cells,MTT,23.3 µM
Nc1ncnc2c1c(-c1ccoc1)cn2[C@@H]1O[C@H](CO)[C@@H](O)C1(F)F,Replicon cells,XTT,20.05 µM
CC(C)N(Cc1ccccc1OCC(=O)O)C(=O)c1ccc(-c2ccc3c(c2)OCO3)cc1,RAJI,,>20 µM
Cc1nc(Oc2ccc(S(C)(=O)=O)cc2)ccc1CN1CCC(N2C(=O)N(c3cc(C(N)=O)c(F)cc3F)C[C@H]2c2ccccc2)CC1,HOS,,4 nM
CCOC(=O)CCCCCOc1cccc(CN(C(=O)c2ccc(-c3cccc(S(C)(=O)=O)c3)cc2)C(C)C)c1,RAJI,,>20 µM
CCn1nc(C)c(N)c1-c1cc(C)on1,MIT-4,,>200 µM
COC(=O)Oc1ccc(C[C@@H](C)[C@@H](C)Cc2ccc(OC(=O)OC)c(OC(=O)OC)c2)cc1OC(=O)OC,COS,,34.75 µM
[Cl][Co][Cl],Vero epithelial cells,,3410 µM
Nc1ccn(C[C@@H](CO)OCP(=O)(O)O)c(=O)n1,CBMC,,63.88 µg/mL
CN[C@@H]1[C@H](O[C@@H]2OC[C@@H](O)[C@H](O)[C@H]2O)[C@@H](O)[C@H](O[C@H]2c3cc(C)c(C(=O)N[C@H](C)C(=O)O)c(O)c3-c3c(cc4c(c3O)C(=O)c3cc(OC)cc(O)c3C4=O)[C@@H]2O)O[C@@H]1C,MDCK cells,,>100 µg/mL
Cc1cc(-c2c(N=O)c(C)nn2C)no1,MIT-4,,11.6 µM
Nc1ncnc2c1c(-c1cccs1)cn2[C@@H]1O[C@H](CO)[C@@H](O)C1(F)F,Replicon cells,XTT,32.71 µM
Cc1cc(-c2cc(C)n(C)n2)no1,MIT-4,,>200 µM
Nc1nc2c(ncn2COC(CO)CO)c(=O)[nH]1,CBMC,,>200 µg/mL

CCn: concentration that lowers growth or viability of the cells by n%. Neighbouring rows are from separate reports.